{"source": "PubChem BioAssay AID504761 | Drosophila RNAi Screening Center | 2011", "test": "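Genome-wide fly cell screen for genes dengue virus requires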 (primary screen)", "cells": "D.Mel-2 cells from Drosophila", "knock-down reagent": "long dsRNA against Drosophila genes", "conditions": "infection with dengue virus type 2; dose and infection time not stated", "measured": "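Per well on two replicate plates, imaging gave the percent of cells positive for viral envelope protein, ranked by infection, and a nuclear count of cells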", "scale": "infection score: higher = more virus-infected cells; cell count: higher = more cells in the well", "active means": "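Very low infection ranking in both replicate wells (chance probability at most 0.065), then a retest showing infection dropped 1.5-fold or more at p below 0.05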", "calls": "active = confirmed: knock-down lowers infection; inactive = not picked or not confirmed", "note": "The deposit covers about 22,000 reagents; below is a random part of those with a known target gene and a result. Of all reagents, 116 (0.52%) are marked active. 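Calls depend on retest data that are not deposited; infection was ranked per plate without normalising between plates; the unit of the infection score is not given.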 The raw values are shown without normalisation. The numbers tell different reagents against one gene apart. Not given: the amount of reagent, the time to read-out."}
{"predicted target":"sip2","dsRNA no.":1,"infection score, replicate 1":6.04,"cell count, replicate 1":1408,"cell count, replicate 2":458,"call":"inactive"}
{"predicted target":"Tbcd","dsRNA no.":1,"infection score, replicate 1":7.71,"infection score, replicate 2":10.6,"cell count, replicate 1":6189,"cell count, replicate 2":5642,"call":"inactive"}
{"predicted target":"Alp11","dsRNA no.":1,"infection score, replicate 2":25.9,"cell count, replicate 1":349,"cell count, replicate 2":6047,"call":"inactive"}
{"predicted target":"IntS1","dsRNA no.":1,"infection score, replicate 1":7.15,"infection score, replicate 2":16.9,"cell count, replicate 1":4616,"cell count, replicate 2":4031,"call":"inactive"}
{"predicted target":"IntS1","dsRNA no.":2,"infection score, replicate 1":2.18,"infection score, replicate 2":6.57,"cell count, replicate 1":780,"cell count, replicate 2":3546,"call":"inactive"}
{"predicted target":"CG15710","dsRNA no.":1,"infection score, replicate 1":14.1,"infection score, replicate 2":11.9,"cell count, replicate 1":5561,"cell count, replicate 2":5724,"call":"inactive"}
{"predicted target":"Bsg","dsRNA no.":1,"infection score, replicate 1":0.17,"cell count, replicate 1":5743,"cell count, replicate 2":5704,"call":"inactive"}
{"predicted target":"Bsg","dsRNA no.":2,"infection score, replicate 1":3.53,"infection score, replicate 2":9.12,"cell count, replicate 1":6179,"cell count, replicate 2":6764,"call":"inactive"}
{"predicted target":"Gcna","dsRNA no.":1,"infection score, replicate 1":3.17,"infection score, replicate 2":2.1,"cell count, replicate 1":126,"cell count, replicate 2":6479,"call":"inactive"}
{"predicted target":"NC2alpha","dsRNA no.":1,"infection score, replicate 1":6.04,"infection score, replicate 2":34.6,"cell count, replicate 1":6857,"cell count, replicate 2":5544,"call":"inactive"}
{"predicted target":"NC2alpha","dsRNA no.":2,"infection score, replicate 1":2.8,"infection score, replicate 2":1.05,"cell count, replicate 1":6280,"cell count, replicate 2":5975,"call":"inactive"}
{"predicted target":"CG7997","dsRNA no.":1,"infection score, replicate 1":5.4,"infection score, replicate 2":4.92,"cell count, replicate 1":6792,"cell count, replicate 2":6519,"call":"inactive"}
{"predicted target":"CG7997","dsRNA no.":2,"infection score, replicate 1":15.5,"infection score, replicate 2":6.58,"cell count, replicate 1":6310,"cell count, replicate 2":6578,"call":"inactive"}
{"predicted target":"CCDC53","dsRNA no.":1,"infection score, replicate 1":2.13,"infection score, replicate 2":2.45,"cell count, replicate 1":6348,"cell count, replicate 2":5996,"call":"inactive"}
{"predicted target":"CG12301","dsRNA no.":1,"infection score, replicate 1":11.1,"infection score, replicate 2":15.4,"cell count, replicate 1":1366,"cell count, replicate 2":3007,"call":"inactive"}
{"predicted target":"dpy","dsRNA no.":1,"infection score, replicate 1":2.76,"infection score, replicate 2":1.87,"cell count, replicate 1":6056,"cell count, replicate 2":5923,"call":"inactive"}
{"predicted target":"dpy","dsRNA no.":2,"infection score, replicate 1":7.94,"infection score, replicate 2":5.44,"cell count, replicate 1":5630,"cell count, replicate 2":5915,"call":"inactive"}
{"predicted target":"dpy","dsRNA no.":3,"infection score, replicate 1":11.7,"infection score, replicate 2":1.57,"cell count, replicate 1":6595,"cell count, replicate 2":7318,"call":"inactive"}
{"predicted target":"Obp73a","dsRNA no.":1,"infection score, replicate 1":2.47,"infection score, replicate 2":17.8,"cell count, replicate 1":6848,"cell count, replicate 2":5768,"call":"inactive"}
{"predicted target":"s-cup","dsRNA no.":1,"infection score, replicate 1":4.83,"infection score, replicate 2":12.4,"cell count, replicate 1":6811,"cell count, replicate 2":6203,"call":"inactive"}
{"predicted target":"s-cup","dsRNA no.":2,"infection score, replicate 1":5.19,"infection score, replicate 2":18.1,"cell count, replicate 1":6305,"cell count, replicate 2":6045,"call":"inactive"}
{"predicted target":"s-cup","dsRNA no.":3,"infection score, replicate 1":3.98,"infection score, replicate 2":3.95,"cell count, replicate 1":6632,"cell count, replicate 2":6397,"call":"inactive"}
{"predicted target":"Fkbp59","dsRNA no.":1,"infection score, replicate 1":2.56,"infection score, replicate 2":5,"cell count, replicate 1":6608,"cell count, replicate 2":6382,"call":"inactive"}
{"predicted target":"Fkbp59","dsRNA no.":2,"infection score, replicate 1":23,"infection score, replicate 2":14.2,"cell count, replicate 1":5578,"cell count, replicate 2":2519,"call":"inactive"}
{"predicted target":"Tsc1","dsRNA no.":1,"infection score, replicate 1":2.65,"infection score, replicate 2":2.82,"cell count, replicate 1":4905,"cell count, replicate 2":5364,"call":"inactive"}
{"predicted target":"Tsc1","dsRNA no.":2,"infection score, replicate 1":25.9,"infection score, replicate 2":28.9,"cell count, replicate 1":4785,"cell count, replicate 2":4635,"call":"inactive"}
{"predicted target":"CG18598","dsRNA no.":1,"infection score, replicate 1":0.71,"infection score, replicate 2":5.8,"cell count, replicate 1":6498,"cell count, replicate 2":3845,"call":"inactive"}

An excerpt from the list above, as a working copy:
{"predicted target":"Fkbp59","dsRNA no.":1,"infection score, replicate 1":2.56,"infection score, replicate 2":5,"cell count, replicate 1":6608,"cell count, replicate 2":6382,"call":"inactive"}
{"predicted target":"Fkbp59","dsRNA no.":2,"infection score, replicate 1":23,"infection score, replicate 2":14.2,"cell count, replicate 1":5578,"cell count, replicate 2":2519,"call":"inactive"}
